Reference: article PMC7676316, “Complete Mapping of Mutations to the SARS-CoV-2 Spike Receptor-Binding Domain that Escape Antibody Recognition” (Cell Host & Microbe, 2021)

Tests used:
[1] = target: WIV16 RBD, unmutated, yeast-displayed (SARS-like coronavirus WIV16 (GenBank …, strain))
[2] = target: GD-Pangolin RBD, unmutated, yeast-displayed (strain)
[3] = target: LYRa11 RBD, unmutated, yeast-displayed (bat SARS-like coronavirus LYRa11 …, UniProt A0A023PUW9, strain)
[4] = target: RaTG13 RBD, unmutated, yeast-displayed (bat coronavirus RaTG13 (GenBank …, UniProt A0ABF7PLN6, strain))

Measured: binding result

B1: COV2-2082 (human IgG) (antibody, V domains shown)
VH: EVQLVESGGGVVRPGGSLRLSCAASGFIFDDYDMTWVRQAPGKGLEWVSGISWNGGNTGYADSVKGRFTISRDNAKNSLYLQMNSLRAEDTALYHCAVIMSPIPRYSGYDWAGGAFDIWGQGTMVTVSS
VL: SSELTQDPAVSVALGQTVRITCQGDSLRSYYASWYQQKPGQVPILVIYDKNNRPSGIPDRFSGSSSGNTASLTITGAQAEDEADYYCNSRDSSGNAVVFGGGTKLTVL
binds: all assays above
